Measured values from several laboratories, pooled; numbers as filed in NIAID ChemDB.

All rows: tests on isolated targets; agent: HIV-1; protein: Reverse transcriptase; read-out: inhibition

Rows are shuffled and stem from different studies. Percent inhibition refers to the dose given; in toxicity tests it is the harm to the cells. An empty or dashed field is not shown.

CCN1C(=O)c2ccnnc2N(C2CC2)c2ccccc21 ; tested at: 33 µM ; result: 2%
Cc1cc(C)c2c(c1)N(CC(C)C)C(=O)c1ccnnc1O2 ; method: ELISA ; tested at: 330 µM ; result: 84%
CCCN1C(=O)c2ccnnc2N(CC)c2ccccc21 ; tested at: 330 µM ; result: 85%
O=C(NCCc1ccccc1)Nc1ccccc1 ; method: nucleotide incorporation ; tested at: 0.1 µg/mL ; result: 1%
CCOC(=O)N1c2cc3c(cc2C=CC1C#N)OCO3 ; method: nucleotide incorporation ; tested at: 50 µM ; result: 44.1%
Cc1cccc2sc(NC(=O)NCCc3ccccc3)nc12 ; method: nucleotide incorporation ; tested at: 0.1 µg/mL ; result: 12%
CCOC(=O)N1c2ccc(OC)cc2C=CC1C#N ; method: nucleotide incorporation ; tested at: 50 µM ; result: 69.9%
Cc1ccc2c(c1)N(CCCCl)C(=O)c1ccnnc1O2 ; method: ELISA ; tested at: 33 µM ; result: 28%
CN1C(=O)c2ccnnc2N(C2CC2)c2ccccc21 ; tested at: 330 µM ; result: 72%
CCCCOC(=O)N1c2ccccc2C=CC1C#N ; method: nucleotide incorporation ; tested at: 50 µM ; result: 88.9%
O=C(NCCc1ccccc1)Nc1nc2c(Cl)cccc2s1 ; method: nucleotide incorporation ; tested at: 0.1 µg/mL ; result: 9%
N#CC1C=Cc2ccccc2N1C(=O)OC1CCCC1 ; method: nucleotide incorporation ; tested at: 50 µM ; result: 43.2%
CN1C(=O)c2ccnnc2Oc2ccccc21 ; method: ELISA ; tested at: 330 µM ; result: 33%
CCCN1C(=O)c2cc(Cl)nnc2N(CC)c2ccc(C)cc21 ; tested at: 330 µM ; result: 7%
COC(=O)N1c2ccc(OC)cc2C=CC1C#N ; method: nucleotide incorporation ; tested at: 50 µM ; result: 40.6%
O=C(NCCc1ccccc1)NCc1ccoc1 ; method: nucleotide incorporation ; tested at: 10 µg/mL ; result: 10%
CC(C)OC(=O)N1c2ccc([N+](=O)[O-])cc2C=CC1C#N ; method: nucleotide incorporation ; tested at: 50 µM ; result: 94%
O=C1NC(c2c[nH]c3ccccc23)=C/C1=C1\C(=O)NC2C=CC=CC12 ; method: RT activity / ELISA ; tested at: 1500 µM ; result: 20.5%
O=C(NCCc1ccccc1)Nc1ccccc1Cl ; method: nucleotide incorporation ; tested at: 10 µg/mL ; result: 50%
CCCCN1C(=O)c2ccnnc2Oc2ccc(C)cc21 ; method: ELISA ; tested at: 330 µM ; result: 44%
COc1ccc2c(c1)C=CC(C#N)N2C(=O)OCC(C)C ; method: nucleotide incorporation ; tested at: 50 µM ; result: 83%

Again, the opening 2 rows:

SMILES	method	tested at	result
CCN1C(=O)c2ccnnc2N(C2CC2)c2ccccc21		33 µM	2%
Cc1cc(C)c2c(c1)N(CC(C)C)C(=O)c1ccnnc1O2	ELISA	330 µM	84%